In US20260078171A1:

Columns and labels:
[1] = biological target: Frankfurt 1 (SARS-CoV isolate Frankfurt 1)
[2] = biological target: SARS-CoV-1 (SARS-CoV)
[3] = biological target: SARS-CoV-2 (SARS-CoV-2)

ACE2-Fc (Fc fusion)
KD App [1]: 8.74 nM | KD App [2]: 8.24 nM | KD App [3]: 10.4 nM
